Target: M.HaeIII DNA methyltransferase (Haemophilus influenzae biogroup aegyptius) (UniProt P20589)
Assay: enzyme reaction in vitro
Settings: self-methylation in emulsion protects from HaeIII but not HhaI cleavage; SAM 80 uM, 25 C, 2 h; protein translated in vitro; label: DIG and biotin on the full 1194 bp fragment

AGCTTGCATGCCTGCGGTACCGGCCATGCGCATGGCCTAGCGCATGCGGCCGCTAGCGCG / AATTCGCGCTAGCGGCCGCATGCGCTAGGCCATGCGCATGGCCGGTACCGCAGGCATGCA
activity on this sequence: active
